Fold change is the IC50 on the isolate divided by the IC50 on a reference virus; 1 = unchanged, higher = more resistant. Changes are given against the subtype B consensus. No active / inactive call. The values were gathered from many studies (numbered anew) with different assays, which the source does not name. Most viruses are clinical isolates; some are laboratory strains or clones with known resistance changes. Isolates with mixed residues are left out; stretches that were not sequenced show no change. Round top values that many isolates share are read here as limits; other very high values and 0.1 may be limits too.
What was measured:
Test in all cases: fold change of IC50 against reference virus; higher = more resistant
delavirdine = compound: CC(C)Nc1cccnc1N1CCN(C(=O)c2cc3cc(NS(C)(=O)=O)ccc3[nH]2)CC1 [delavirdine]
Method: (§1)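 Cell-culture drug susceptibility tests of virus bearing the reverse transcriptase of each isolate, gathered from many studies.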

abacavir = compound: Nc1nc(NC2CC2)c2ncn([C@H]3C=C[C@@H](CO)C3)c2n1 [abacavir]
Method: as §1

zidovudine = compound: Cc1cn([C@H]2C[C@H](N=[N+]=[N-])[C@@H](CO)O2)c(=O)[nH]c1=O [zidovudine]
Method: as §1

zalcitabine = compound: Nc1ccn([C@H]2CC[C@@H](CO)O2)c(=O)n1 [zalcitabine]
Method: as §1

stavudine = compound: Cc1cn([C@H]2C=C[C@@H](CO)O2)c(=O)[nH]c1=O [stavudine]
Method: as §1

tenofovir = compound: C[C@H](Cn1cnc2c(N)ncnc21)OCP(=O)(O)O [tenofovir]
Method: as §1

efavirenz = compound: O=C1Nc2ccc(Cl)cc2[C@@](C#CC2CC2)(C(F)(F)F)O1 [efavirenz]
Method: as §1

didanosine = compound: O=c1[nH]cnc2c1ncn2[C@H]1CC[C@@H](CO)O1 [didanosine]
Method: as §1

nevirapine = compound: Cc1ccnc2c1NC(=O)c1cccnc1N2C1CC1 [nevirapine]
Method: as §1

Row | Test System | fold change of IC50 against reference virus (delavirdine) | fold change of IC50 against reference virus (abacavir) | fold change of IC50 against reference virus (zidovudine) | fold change of IC50 against reference virus (zalcitabine) | fold change of IC50 against reference virus (stavudine) | fold change of IC50 against reference virus (tenofovir) | fold change of IC50 against reference virus (efavirenz) | fold change of IC50 against reference virus (didanosine) | fold change of IC50 against reference virus (nevirapine)
1 | HIV-1 isolate 776 (reverse transcriptase changes: D67N T69D K70R V106A K122E F214L T215F K219Q F227L A272P K277R, study 138) | 15.3 | 4.1 | 2400 | 1.4 | 3.3 | 4.7 | 201 | 1.7 | ≥ 400
2 | HIV-1 isolate 784 (reverse transcriptase changes: D67N K70R A98S K122E D123E D177E I178L V179I G190A T215F K219Q V245E K277R T286A E297K K311R, study 121) | 0.4 | 3.4 | 154 | 1.4 | 2.4 | 3 | 4.3 | 1.4 | 85
3 | HIV-1 isolate 803 (reverse transcriptase changes: D67G S68G L74V Y115F K122Q D123E I135T I142V D177E M184V V189I G190E T200A T215F K219E V245E E297R, study 15) | 43 | 16 | 2.2 | 1.3 | 1.3 | 0.7 | 800 | 1.9 | ≥ 400
4 | HIV-1 isolate 826 (reverse transcriptase changes: V35I M41L K43Q A62V D67N V75I E79D R83K K122E M184V G196E Q197K L210W T215Y D218E K223Q A272P K277R, study 121) | 0.1 | 4.9 | 7.1 | 2.1 | 2.5 | 0.9 | 0.1 | 1.7 | 0.3
5 | HIV-1 isolate 831 (reverse transcriptase changes: M41L L74V K102Q D123E Y181C I202V R211K T215Y A272P K277R T286A, study 121) | 6.4 | 2.5 | 1.6 | 1.3 | 1.5 | 0.7 | 0.8 | 1.6 | 77
6 | HIV-1 isolate 835 (reverse transcriptase changes: M41L K122E M184V F214L T215Y A272P K277R, study 138) | 0.3 | 3.2 | 5.5 | 1.4 | 1 | 1 | 0.3 | 1.2 | 0.5
7 | HIV-1 isolate 882 (reverse transcriptase changes: V21I T139R M184V T200A Q207E R211K K238N A272P P294T E297K, study 12) | 19 | 2.6 | 0.9 | 2.1 | 0.7 | 0.7 | 4 | 1.7 | 34
8 | HIV-1 isolate 883 (reverse transcriptase changes: V35M V60I K64R D67N K70R K101R V108I K122P I135T D177E I178L M184V T215F K219Q A272P K277R I293V, study 121) | 0.8 | 6.5 | 7.7 | 2.4 | 1.5 | 1.1 | 1 | 1.7 | 2
9 | HIV-1 isolate 890 (reverse transcriptase changes: K32T T39A M41L E44D I47V D67N A98S K103N H208Y L210W R211K T215Y K219N V245T K277R R284K T286A, study 121) | 41 | 6.6 | 2400 | 1.8 | 4.2 | 5.9 | 15 | 1.6 | 55
10 | HIV-1 isolate 933 (reverse transcriptase changes: M41L D67N K70R K103N K122E M184V F214L T215Y K219E A272P K277R, study 138) | 30.8 | 6.1 | 33.8 | 1.8 | 1.7 | 1.8 | 19.5 | 1.6 | 42.6
11 | HIV-1 isolate 946 (reverse transcriptase changes: T27A V35Q T39A D67N S68G K70R D123E I135T I142V K166R D177E V179I Y181C G196E E203D T215F K219E A272P K277R L283I A288T E297K, study 121) | 49 | 2.3 | 102 | 0.9 | 2.2 | 2.8 | 2.8 | 1.2 | ≥ 400
12 | HIV-1 isolate 951 (reverse transcriptase changes: E36G M41L K43Q D67N I135T M184V L210W R211D T215Y V245M A272P K277R, study 121) | 0.3 | 7.3 | 64 | 2.4 | 2.3 | 2.6 | 0.4 | 2.3 | 0.7
13 | HIV-1 isolate 987 (reverse transcriptase changes: A62V S68G T69K K70G V75I F77L Y115F F116Y Q151M I178M M184V R211K K277R I293V, study 121) | 2.3 | 20 | 261 | 47 | 11 | 2.4 | 0.9 | 23 | 1
14 | HIV-1 isolate 1015 (reverse transcriptase changes: V35T M41L R83K D177E I178M M184V T215Y V245M E248D D250E A272P T286A, study 121) | 0.5 | 3.8 | 6.3 | 1.8 | 1.6 | 1.3 | 0.5 | 1.6 | 0.7
15 | HIV-1 isolate 1024 (reverse transcriptase changes: M41I D67N K103N M184V L210W T215Y K219N, study 15) | 104 | 10 | 270 | 2.5 | 2.8 | 2.3 | 17 | 2.6 | 53
16 | HIV-1 isolate 1115 (reverse transcriptase changes: K20R K32E T39A M41L E44D D67N V118I D123E I135K Q174R D177E M184V G196E T200A L210W R211K T215Y V245E E297K, study 15) | 0.1 | 5.2 | 9.6 | 2.6 | 2.6 | 1.1 | 0.2 | 2.1 | 0.1
17 | HIV-1 isolate 1137 (reverse transcriptase changes: T27S V60I D67N T69N K70R K103S I135T Y188H G190A T215F D218E K219E E248Q K249Q A288T P294L, study 15) | 7.4 | 3.1 | 677 | 2.1 | 2.1 | 4 | 800 | 1.3 | 800
18 | HIV-1 isolate 1150 (reverse transcriptase changes: M41L E44D D67N K122E M184V L210W F214L T215Y K219E A272P K277R, study 138) | 0.1 | 2.5 | 1.7 | 1.3 | 1.3 | 0.6 | 0.2 | 1.2 | 0.1
19 | HIV-1 isolate 1174 (reverse transcriptase changes: M41L W88C V111I K122E M184V L210W T215Y K275R K277R Q278N L283I I293V, study 121) | 0.4 | 5 | 3.6 | 2.5 | 1.6 | 1.2 | 0.4 | 1.6 | 0.6
20 | HIV-1 isolate 1200 (reverse transcriptase changes: D67N K70R A98S K101E K122E D123E D177E I178L V179I G190A T215I K219Q V245E K277R T286A E297K, study 121) | 2.1 | 2.8 | 177 | 1.2 | 2 | 3.5 | 76 | 1.2 | ≥ 400
21 | HIV-1 isolate 1205 (reverse transcriptase changes: R83K K103N I135V E169D Y181C T200A Q207E T215Y H221Y V245T, study 121) | ≥ 250 | 2.9 | 38 | 1.3 | 1.8 | 2 | 132 | 1.5 | ≥ 400
22 | HIV-1 isolate 1238 (reverse transcriptase changes: D67N K70R L74V A98G K103N Y181C M184V K219Q, study 15) | 200 | 7 | 1.2 | 1.8 | 1.5 | 0.6 | 32 | 2.1 | 200
23 | HIV-1 isolate 1245 (reverse transcriptase changes: M41L Q85R V90I K103N I135V T139R Y181C M184V G196E T200A T215Y, study 121) | ≥ 250 | 1.5 | 1.8 | 1 | 0.9 | 0.8 | 84 | 0.7 | ≥ 400
24 | HIV-1 isolate 1247 (reverse transcriptase changes: M41L V90I H96R K103N I135V T139R Q161P Y181C M184V G196E T200A, study 121) | ≥ 250 | 1.6 | 0.5 | 1.1 | 0.6 | 0.4 | 46 | 1.4 | ≥ 400
25 | HIV-1 isolate 1250 (reverse transcriptase changes: V35Q T39A M41L V60I D67N T69N K70R D123E I135T I142V K166R D177E G196E E203D T215F K219E, study 121) | 1.7 | 4.2 | 923 | 1 | 2.6 | 8.1 | 1.6 | 1.7 | 3.6
26 | HIV-1 isolate 1273 (reverse transcriptase changes: D67N T69D K70R K122E Y181C F214L T215F K219Q F227L A272P K277R, study 138) | 1 | 1.6 | 83.3 | 0.8 | 3.2 | 2.1 | 10 | 0.8 | ≥ 400
27 | HIV-1 isolate 1283 (reverse transcriptase changes: V35M K102Q I135V T139R Y181C M184V G196E T200A T215Y L228P, study 121) | 50 | 4.6 | 0.7 | 2.3 | 1 | 0.4 | 1 | 1.9 | 123
28 | HIV-1 isolate 1299 (reverse transcriptase changes: I5S K20R E28K K32E V35R M41L E44D D67N K103N D123E I135M K166R D177E M184V G196E T200A L210W R211K T215Y V245E E297K, study 15) | 14 | 6.5 | 221 | 2.1 | 2.1 | 2.5 | 20 | 2 | 55
